The values below come from patent US20080063679A1, “NANOCOMPOSITES WITH RESIDUAL BIOCIDAL AND BIOSTATIC PROPERTIES” (Quartek Corporation, priority 2006, published 2008).

The conditions of the data set: Table 1. The text has this: Current antimicrobials have a short life with no residual effect. They lose there effectiveness in high protein environment. Certain bacteria developed resistance. They are toxic or cause irritations. Some are highly corrosive.

Consider `OCl` [Hypochlorite], for which the Life-time was found to be 2 h, the Non-staining entry was “bleaching”, the Odorless result is listed as “no” and the pH was 6–7.
